Laboratory results published in the supplement of paper PMC9931576.
Human monoclonal antibodies against the spike receptor-binding domain (heavy:light variable regions). IC50 against pseudoviruses bearing the spike of naturally observed variants; lower = stronger; >10 µg/ml means not reached at the top dose. No active / inactive call. The stated detection limit is 0.0005 µg/ml; values near or below 0.001 µg/ml lie at the floor of the assay.

Assays:
Experiment in all cases: pseudovirus neutralization IC50; higher = weaker neutralization
[1] = target: SARS-CoV-2 Omicron BA.1 spike pseudovirus
Procedure: (§1)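 Single-round VSV luciferase pseudovirus mixed with antibody dilutions for 1 h and put on Huh-7 cells for about a day; IC50 from the dose curve.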

[2] = target: SARS-CoV-2 Omicron BA.2 spike pseudovirus
Procedure: as §1

[3] = target: SARS-CoV-2 Omicron BA.2.75 spike pseudovirus
Procedure: as §1

[4] = target: SARS-CoV-2 Omicron BA.5 spike pseudovirus
Procedure: as §1

[5] = target: SARS-CoV-2 Omicron BQ.1.1 spike pseudovirus
Procedure: as §1

[6] = target: SARS-CoV-2 Omicron XBB spike pseudovirus
Procedure: as §1

[7] = target: SARS-CoV-2 early D614G spike pseudovirus
Procedure: as §1

B1: BD55-6387 (protein)
chain 1: EVHLVESGGTLVQPGGSLRLSCAASGFIFTNYEMNWVRQAPGKGLEWVSYISRTGATMHYADSVKGRFTISRDNAKSSLYLQMNALRAEDTAVYYCASGLSNTWYDLVFWGQGTLVTVSS
chain 2: DIQMTQSPSSLSASVGDRVTITCRASQGIGNDLGWYQQKPGKAPQRLIFAASSLQSGAPSRFSGSGSGTEFTLTINSLQPEDSATYYCLQHNSYPPTFGQGTNLEIK
- pseudovirus neutralization IC50 [1]: > 10 µg/mL
- pseudovirus neutralization IC50 [2]: > 10 µg/mL
- pseudovirus neutralization IC50 [3]: > 10 µg/mL
- pseudovirus neutralization IC50 [4]: > 10 µg/mL
- pseudovirus neutralization IC50 [5]: > 10 µg/mL
- pseudovirus neutralization IC50 [6]: > 10 µg/mL
- pseudovirus neutralization IC50 [7]: 0.0742 µg/mL

B2: BD55-6412 (protein)
chain 1: EVQLVESGGVLVQPGRSLRLSCTTSGFIFGDYGMTWVRQAPGKGLEWVGFIRTKAYGGTTEYAASVKGRFTISRDDSESIAYLQMDSLKTEDTAVYYCAREMTTLKYYYYAFDVWGRGTTVTVSS
chain 2: DIQLTQSPSSLSAAVGDRVTITCRASQSISYNLNWYHQKPGQAPKLLIYAASSLQSGVPSRFSGSGSGTDFTLTISSLQPEDFATFYCQHSYTTLTTFGPGTKVDIK
- pseudovirus neutralization IC50 [1]: > 10 µg/mL
- pseudovirus neutralization IC50 [2]: > 10 µg/mL
- pseudovirus neutralization IC50 [3]: > 10 µg/mL
- pseudovirus neutralization IC50 [4]: > 10 µg/mL
- pseudovirus neutralization IC50 [5]: > 10 µg/mL
- pseudovirus neutralization IC50 [6]: > 10 µg/mL
- pseudovirus neutralization IC50 [7]: > 10 µg/mL

B3: BD55-6419 (protein)
chain 1: QVQLQESGPGLVKPSETLSLTCTVSGASITNYFWSWIRQPPGKGLEYIGYIYYSGRTNYNPSLRSRLTISLDTSKNQFSLKLSSVTAADTAVYFCARGFIAASDDAFDIWGQGTMVTVSS
chain 2: QSALTQPASVSGSPGQSITISCTGASSDVGGYNYVSWYQQHPGKAPKLMIYDVNNRPSGVSDRFSGSKSGNTASLTISGLQAEDEADYYCSSYTGSSVVFGGGTKLTVL
- pseudovirus neutralization IC50 [1]: > 10 µg/mL
- pseudovirus neutralization IC50 [2]: > 10 µg/mL
- pseudovirus neutralization IC50 [3]: > 10 µg/mL
- pseudovirus neutralization IC50 [4]: > 10 µg/mL
- pseudovirus neutralization IC50 [5]: > 10 µg/mL
- pseudovirus neutralization IC50 [6]: > 10 µg/mL
- pseudovirus neutralization IC50 [7]: > 10 µg/mL

B4: BD55-6380 (protein)
chain 1: EAQLVESGGGLVKPGGSLRLSCAASGFIFSSDSMNWVRQAPGKGLEWVSSISRTSDLKFYADSVKGRFTISRDNAKNSLYLQMNSLRAEDTAVYYCAREVGSTRTWLDPWGQGTLVTVSS
chain 2: DIQMTQSPSSLSASVGDRVTITCRASQSISNYLNWYQQKPGKGPKLLIYAASNLQSGVPSRFSGSGSGTDFTLTISSLQPEDFATYYCQQSYVTPEFTFGPGTKVDIK
- pseudovirus neutralization IC50 [1]: > 10 µg/mL
- pseudovirus neutralization IC50 [2]: > 10 µg/mL
- pseudovirus neutralization IC50 [3]: > 10 µg/mL
- pseudovirus neutralization IC50 [4]: > 10 µg/mL
- pseudovirus neutralization IC50 [5]: > 10 µg/mL
- pseudovirus neutralization IC50 [6]: > 10 µg/mL
- pseudovirus neutralization IC50 [7]: > 10 µg/mL

B5: BD55-1242 (protein)
chain 1: EVQLVESGGGLVQPGGSVKLSCAASGFTFSSDDMHWVRQVTGKSLEWVSGTGTSGDTYYLDSVKGRFTISRENAKNSVYLQMNNLGAGDTAVYFCVRGRSSGLYYYFDFWGQGTLVTVSS
chain 2: DIQMTQSPSSLSASVGDRVTITCRASQTISRYLNWYQQKPGKAPKLLIYAASNLQSGVPSRFSGSGSGTDFTLSISSLQPEDFATYYCQQSYSSPPWTFGPGTKVEIK
- pseudovirus neutralization IC50 [1]: > 10 µg/mL
- pseudovirus neutralization IC50 [2]: > 10 µg/mL
- pseudovirus neutralization IC50 [3]: > 10 µg/mL
- pseudovirus neutralization IC50 [4]: > 10 µg/mL
- pseudovirus neutralization IC50 [5]: > 10 µg/mL
- pseudovirus neutralization IC50 [6]: > 10 µg/mL
- pseudovirus neutralization IC50 [7]: > 10 µg/mL

B6: BD55-6441 (protein)
chain 1: QVQLVQSGAEVKKPGGSMKVSCKTSGYPFTDYYMHWVRQAPGQGLEWMGWINPKSGDTSYAHDFQDRVTMSRDTSINTVYMEVNSLRSDDTAVYYCARDGGGGGWNDFNWFDSWGQGTLVAVSS
chain 2: AIRMTQSPSSFSAFTGDRVTITCRASQDIGSYLAWYQQKPGKAPKVLIYAASTLYSGVPSRFSGSGSGTEFSLTISRLQSEDFATYYCQQYYSYPYTFGQGTKLELK
- pseudovirus neutralization IC50 [1]: > 10 µg/mL
- pseudovirus neutralization IC50 [2]: > 10 µg/mL
- pseudovirus neutralization IC50 [3]: > 10 µg/mL
- pseudovirus neutralization IC50 [4]: > 10 µg/mL
- pseudovirus neutralization IC50 [5]: > 10 µg/mL
- pseudovirus neutralization IC50 [6]: > 10 µg/mL
- pseudovirus neutralization IC50 [7]: > 10 µg/mL

B7: BD55-6428 (protein)
chain 1: QVQLVQSGAEAKKPGASVKLSCRASGYNLTSFHINWVRQAPGKGLEWVGIINPSDGTARYAQEFQGRVTMSRDTSTSTVYLDVRSLRSEDSAFYYCAREVYYGVGFYVFDYWGQGTLVTVS
chain 2: DIQMTQSPSSLSASVGDRVTITCRASQSISTYVNWYEQKPGKAPNLLIYEASRLQSGVPSRFSGSGSGTEFSLTISSLQPEDFVTFYCQQSYSTPYTFGQGTRLEI
- pseudovirus neutralization IC50 [1]: > 10 µg/mL
- pseudovirus neutralization IC50 [2]: > 10 µg/mL
- pseudovirus neutralization IC50 [3]: > 10 µg/mL
- pseudovirus neutralization IC50 [4]: > 10 µg/mL
- pseudovirus neutralization IC50 [5]: > 10 µg/mL
- pseudovirus neutralization IC50 [6]: > 10 µg/mL
- pseudovirus neutralization IC50 [7]: > 10 µg/mL

B8: BD55-6382 (protein)
chain 1: QVQLVQSGAEVKKPGSSVKVSCKASGGSFSNYAINWMRQAPGQGLEWMGQIIPSFGIANYAQKFQGRVTITADESTSTAYMELTNLRSEDAALYYCARDPFSTLGVVDVPTTQGYFDPWGQGSLVTVSS
chain 2: EIVLTQSPGTLSLSPGERGTLSCRASQSVSTYLAWYQQKPGQAPTLLIYDASSRATGIPDRFSGSGSGTAFTLTISRLEPEDFAVYYCQQYGTSLRTFGQGTKLEIK
- pseudovirus neutralization IC50 [1]: > 10 µg/mL
- pseudovirus neutralization IC50 [2]: > 10 µg/mL
- pseudovirus neutralization IC50 [3]: > 10 µg/mL
- pseudovirus neutralization IC50 [4]: > 10 µg/mL
- pseudovirus neutralization IC50 [5]: > 10 µg/mL
- pseudovirus neutralization IC50 [6]: > 10 µg/mL
- pseudovirus neutralization IC50 [7]: 0.00478 µg/mL

B9: BD55-6442 (protein)
chain 1: QVQLVQSGAEVKKPGASVKVSCKASGYTFTSHDINWVRQATGQGLEWMGWMNPISGDTGYAQKFQGRVMMTRDTSISTAYMELSSLRSDDTAVYYCARGYPYYDMLTGVSHYYYGLDVWGQGTTVTVSS
chain 2: DIQMTQSPSSLSASVGDRVTITCRASQGISNSLAWFQQKPGKAPKSLIYGASSLQSGVPSKFSGSGSGTDFTLTISSLQPEDFATYYCQQYNSYPLTFGGGTKVEIK
- pseudovirus neutralization IC50 [1]: > 10 µg/mL
- pseudovirus neutralization IC50 [2]: > 10 µg/mL
- pseudovirus neutralization IC50 [3]: > 10 µg/mL
- pseudovirus neutralization IC50 [4]: > 10 µg/mL
- pseudovirus neutralization IC50 [5]: > 10 µg/mL
- pseudovirus neutralization IC50 [6]: > 10 µg/mL
- pseudovirus neutralization IC50 [7]: > 10 µg/mL

B10: BD55-6426 (protein)
chain 1: QVEMVESGGGLVKPGGSLRLSCAASGFIFSVYDMNWVRQSPGKGLEWISYISSSGDTTFYADSVKGRFTISRDNAKNSLSLQMNSLRAEDTAVYYCAREKKGYNYGYPTLDHWGLGILVTVSS
chain 2: DIEMTQSPSSLSASVGDRVTISCRASQSISFYVNWYQQKPGKAPKLLIYTASTLQTGVPSRFSGSGSGTDFTLTISSLQPDDFATYYCQQTYTTPPPPLTFGGGTRVEFK
- pseudovirus neutralization IC50 [1]: > 10 µg/mL
- pseudovirus neutralization IC50 [2]: > 10 µg/mL
- pseudovirus neutralization IC50 [3]: > 10 µg/mL
- pseudovirus neutralization IC50 [4]: > 10 µg/mL
- pseudovirus neutralization IC50 [5]: > 10 µg/mL
- pseudovirus neutralization IC50 [6]: > 10 µg/mL
- pseudovirus neutralization IC50 [7]: > 10 µg/mL

B11: BD55-6444 (protein)
chain 1: QVQLVQSGAEVKKPGASVKVSCKASGYTFIRFHMHWVRQAPGQGLEWMGRINPSDGSTSYAQTFQGRVTMTRDTSATTVYMEVRSLRSEDTAVYFCARDAEIQLWPNVVDSWGQGTLVTVSS
chain 2: DIQMTQSPSSLSASVGDRVTITCRASQSISYYVHWYQHKPGKAPKLLIYAASNLQSGVPSRFSGSGSGTDFTLTISSLQPEDFATYFCQQTYTTLLTFGGGTKVEIK
- pseudovirus neutralization IC50 [1]: > 10 µg/mL
- pseudovirus neutralization IC50 [2]: > 10 µg/mL
- pseudovirus neutralization IC50 [3]: > 10 µg/mL
- pseudovirus neutralization IC50 [4]: > 10 µg/mL
- pseudovirus neutralization IC50 [5]: > 10 µg/mL
- pseudovirus neutralization IC50 [6]: > 10 µg/mL
- pseudovirus neutralization IC50 [7]: > 10 µg/mL

B12: BD55-6425 (protein)
chain 1: EVQLVQSRAGLKKPGESLKISCKGSGYNFNDYWIAWVRQMPGKGPEWMGLVYPGDSDTRYSPSFQGQVTFSADKSINTAYLQWNSLRASDTATYYCARHGGPLRHIDWQNHGMDVWGQGTAVTVSS
chain 2: DIHMTQSPSSLSASVGDRVTITCRASQTIGTYLHWYQQKPGNAPKLLIYAASSLQSGVPSRFRGAGSGTDFTLTISGLQPEDFATYFCQQSYSTPTWTFGQGTKVELK
- pseudovirus neutralization IC50 [1]: > 10 µg/mL
- pseudovirus neutralization IC50 [2]: > 10 µg/mL
- pseudovirus neutralization IC50 [3]: > 10 µg/mL
- pseudovirus neutralization IC50 [4]: > 10 µg/mL
- pseudovirus neutralization IC50 [5]: > 10 µg/mL
- pseudovirus neutralization IC50 [6]: > 10 µg/mL
- pseudovirus neutralization IC50 [7]: > 10 µg/mL
